Anti-infective test results gathered from many reports (values: NIAID ChemDB through PubChem).

Shared fields: tests in culture; agent: HIV-1; read-out: fold resistance

Conditions beyond the fields shown may differ between rows. Fold resistance has wild type as its base. An empty or dashed field is not shown.

Cc1cc(Cl)cc(C(=O)c2cc(Cl)ccc2OCC(=O)Nc2ccc(S(N)(=O)=O)cc2C)c1 ; mutations: RT-Y181C ; cells: HeLa + HELA CD4+ ; read by: β-galactosidase ; strain: HXB2 ; value: ~10
C=Cc1c(Oc2cc(C)cc(C)c2)c(CC)c(C)[nH]c1=O ; mutations: RT-K103N Y181C ; cells: MT-4 ; read by: cytopathic effect / MTT ; value: 65
O=C1Nc2ccc(Cl)c(O)c2[C@@](C#CC2CC2)(C(F)(F)F)N1 ; mutations: RT-K103N ; cells: MT-4 ; read by: p24 ; value: 7.78
CC1=C(C(=O)Nc2ccc(Cl)c(OCC=C(Cl)Cl)c2)SCCO1 ; mutations: RT-K103N ; cells: CEM ; read by: syncytia ; strain: TIBO R82913-resistant (RT K103N) ; value: 1.67
CCN1c2ncc(CCOc3ccc(CC(=O)NN)c4ccccc34)cc2C(=O)N(C)c2ccc(Cl)nc21 ; mutations: RT-K103N Y181C ; cells: C8166 ; read by: p24 ; value: 1
COc1ccc(NC(=S)c2ccoc2C)cc1OCC=C(Cl)Cl ; mutations: RT-V106A ; cells: CEM ; read by: syncytia ; strain: Nevirapine-resistant isolate (RT V106A) ; value: 6.42
C=CCNC(=O)CSc1cnc(Nc2ccc(C#N)cc2)nc1Oc1c(C)cc(C#N)cc1C ; mutations: K103N ; cells: MT-4 ; read by: MTT ; value: 0.8
Cc1cc2cn[nH]c2cc1NC(=O)COc1ccc(Cl)cc1C(=O)c1cccc(C#N)c1 ; mutations: RT-V108I Y181C ; cells: HeLa + HELA CD4+ ; read by: β-galactosidase ; strain: HXB2 ; value: ~1
Cc1occc1C(=S)Nc1ccc(Cl)c(/C=N/OC(C)(C)C)c1 ; mutations: RT-V106A ; cells: CEM ; read by: syncytia ; strain: IIIB ; value: 3
COc1c(Cl)ccc2c1[C@@](C#Cc1ccccc1)(C(F)(F)F)NC(=O)N2 ; mutations: RT-L100I K103N ; cells: MT-4 ; read by: p24 ; value: 698.1
CCc1c(C)[nH]c(=O)c(Br)c1Oc1cc(C)cc(C)c1 ; mutations: RT-K103N Y181C ; cells: MT-4 ; read by: cytopathic effect / MTT ; value: 79
CC(C)=CCOc1cc(NC(=S)c2ccoc2C)ccc1Cl ; mutations: RT-Y181C ; cells: CEM ; read by: syncytia ; strain: IIIB ; value: 4
Nc1nc(NC2CC2)c2ncn([C@H]3C=C[C@@H](CO)C3)c2n1 ; mutations: RT-A62V V75I F77C F116Y Q151M ; cells: PBMC ; read by: p24 ; strain: XM-Q151M ; value: 0.7
Cc1ccc(C2CC2)c(-c2cc(F)c3c(c2C)CCCO3)c1[C@H](OC1CC1)C(=O)O ; mutations: INSTI-resistant (IN-G140S Q148H) ; cells: MT-4 ; read by: luminescence ; strain: NL4-3 ; value: 1
O=C1Nc2ccc(Cl)c3c2[C@](C(F)(F)F)(C=C(c2ccccc2)O3)N1 ; mutations: RT-L100I K103N ; cells: MT-4 ; read by: p24 ; value: 202.8
C=C(Cl)COc1cc(NC(=S)c2ccoc2C)ccc1Cl ; mutations: RT-K103N ; cells: CEM ; read by: syncytia ; strain: TIBO R82913-resistant (RT K103N) ; value: 13.8
N#Cc1cc2[nH]c3ccccc3c2n(-c2ccc([N+](=O)[O-])cc2)c1=O ; mutations: RT-L100I K103N ; cells: MT-4 ; read by: cytopathic effect / MTT ; strain: D ; value: 3
C=C(C)[C@@H]1CC[C@]2(C(=O)NCCCCCCCC(=O)N[C@@H](CC(C)C)[C@@H](O)CC(=O)O)CC[C@]3(C)[C@H](CC[C@@H]4[C@@]5(C)CC[C@H](O)C(C)(C)[C@@H]5CC[C@]43C)[C@@H]12 ; mutations: GP41-K90R ; cells: HeLa P4 + HeLa ; read by: syncytia ; strain: LAI ; value: ~1
CCN1c2ncc(CCOc3ccc(/C=C/C(=O)O)c4ccccc34)cc2C(=O)Nc2c(C)ccnc21 ; mutations: RT-K103N Y181C ; cells: C8166 ; read by: p24 ; value: 1
CCc1c(C)[nH]c(=O)c(SC)c1Oc1cc(C)cc(C)c1 ; mutations: RT-Y181C ; cells: MT-4 ; read by: cytopathic effect / MTT ; value: 16
O=C(COc1ccc(Cl)cc1C(=O)c1ccccc1)Nc1ccc2cn[nH]c2c1 ; mutations: RT-K103N ; cells: HeLa + HELA CD4+ ; read by: β-galactosidase ; strain: HXB2 ; value: ~1
Cc1ccccc1Oc1nc(Nc2ccc(C#N)cc2)c(=O)n(C)c1C ; mutations: RT-Y188L ; cells: MT-4 ; read by: cytopathic effect / MTT ; value: 126.2
Cc1cc(C#N)cc(C)c1Oc1nc(Nc2ccc(C#N)cc2)ncc1SCC(=O)NC1CCN(C(=O)OC(C)(C)C)CC1 ; mutations: L100I ; cells: MT-4 ; read by: MTT ; value: 7.1
O=C1Nc2ccc(Cl)cc2[C@@](C#CC2CC2)(C(F)(F)F)N1 ; mutations: RT-K103N ; cells: MT-4 ; read by: p24 ; value: 5
CCc1c(C)[nH]c(=O)c(OC)c1Oc1cc(C)cc(C)c1 ; mutations: RT-L100I ; cells: MT-4 ; read by: cytopathic effect / MTT ; value: 13
Cc1cc(C)c(Oc2nc(Nc3ccc(C#N)cc3)c(=O)n(C)c2C)c(C)c1 ; mutations: RT-L100I ; cells: MT-4 ; read by: cytopathic effect / MTT ; value: 10
C#CCNC(=O)CSc1cnc(Nc2ccc(C#N)cc2)nc1Oc1c(C)cc(C#N)cc1C ; mutations: K103N ; cells: MT-4 ; read by: MTT ; value: 0.7
CCN1c2ncc(CCOc3ccc(C(=O)O)c4c3CCCC4)cc2C(=O)N(C)c2ccc(Cl)nc21 ; mutations: RT-K103N Y181C ; cells: C8166 ; read by: p24 ; value: 1
Nc1nc(=O)n([C@H]2C=C[C@@H](CO)O2)cc1F ; mutations: RT-K65R L74V M184V Y115F ; cells: PBMC ; read by: p24 ; strain: XM-ABC-resistant ; value: 3.6
O=C1Nc2ccc(Cl)cc2[C@@](/C=C/C2CC2)(C(F)(F)F)N1 ; mutations: RT-Y188L ; value: 40
COCCNC(=O)CSc1cnc(Nc2ccc(C#N)cc2)nc1Oc1c(C)cc(C#N)cc1C ; mutations: E138K ; cells: MT-4 ; read by: MTT ; value: 2.3
C[C@@H]1CCO[C@H]2Cn3cc(C(=O)NCc4ccc(F)cc4F)c(=O)c(O)c3C(=O)N12 ; mutations: PI-resistant ARP-4595 (M46I/L63P/V82T/I84V) ; cells: MT-4 ; read by: luminescence ; strain: NL4-3 ; value: 1
C[C@H]1CO[C@@H]2Cn3cc(C(=O)NCc4ccc(F)cc4F)c(=O)c(O)c3C(=O)N12 ; mutations: M50I/R263K ; cells: CBMC ; read by: RT activity ; strain: NL4-3 ; value: 1.9
C=C(Cl)COc1cc(NC(=S)c2ccsc2C)ccc1C#N ; mutations: RT-E138K ; cells: CEM ; read by: syncytia ; strain: TSAO-m3T-resistant (RT E138K) ; value: 4.33
Cc1cc(C#N)cc(C)c1Oc1nc(Nc2ccc(C#N)cc2)ncc1SCC(=O)NC1CC1 ; mutations: L100I ; cells: MT-4 ; read by: MTT ; value: 5.1
Cc1cc(S(N)(=O)=O)ccc1NC(=O)COc1ccc(Cl)cc1C(=O)c1cccc(C#N)c1 ; mutations: RT-E138K ; cells: HeLa + HELA CD4+ ; read by: β-galactosidase ; strain: HXB2 ; value: ~1
C[C@@H]1CCO[C@H]2Cn3cc(C(=O)NCc4ccc(F)cc4F)c(=O)c(O)c3C(=O)N12 ; mutations: L74I/V75I ; cells: TZM-bl ; read by: luciferase / luminescence ; value: 0.6
O=C1Nc2ccc(Cl)cc2[C@@](C#CC2CC2)(C(F)(F)F)N1 ; mutations: RT-V106A ; value: <6.32
Cn1c2ccccc2c2c1cc(C#N)c(=O)n2-c1ccc([N+](=O)[O-])cc1 ; mutations: RT-F227C ; cells: MT-4 ; read by: cytopathic effect / MTT ; strain: E ; value: 3
Cc1cc(C)cc(S(=O)(=O)c2c(C(=O)NNCCO)[nH]c3ccc(Cl)cc23)c1 ; mutations: RT-K103R V179D P225H ; cells: C8166 ; read by: p24 ; strain: EFV-resistant (RT K103R V179D P225H) ; value: 200
Cc1ccc(Oc2cn(C)c(=O)c(Nc3ccc(F)cc3)n2)c(C)c1 ; mutations: RT-Y181C ; cells: MT-4 ; read by: cytopathic effect / MTT ; value: >7.95
CCN1c2ncc(CCOc3ccc(C(C)C(=O)O)c4ccccc34)cc2C(=O)N(C)c2cccnc21 ; mutations: RT-K103N Y181C ; cells: C8166 ; read by: p24 ; value: 1
CCc1c(C)[nH]c(=O)c(C(F)(F)F)c1Oc1cc(C)cc(C)c1 ; mutations: RT-K103N ; cells: MT-4 ; read by: cytopathic effect / MTT ; value: 4
CCC(=O)c1ccc(F)c([C@@H]2C[C@@H]2NC(=O)Nc2ccc(C#N)cn2)c1O ; mutations: NNRTI-resistant (RT K103N) ; cells: TZM-bl ; read by: β-galactosidase / luminescence ; strain: LAI ; value: 34.6
Cc1cc(C#N)cc(C)c1Oc1nc(Nc2ccc(C#N)cc2)ncc1SCC(=O)NCC1CCCO1 ; mutations: Y181C ; cells: MT-4 ; read by: MTT ; value: 6.5
C/C(Cl)=C/COc1cc(NC(=O)c2ccoc2C)ccc1Cl ; mutations: RT-K103N ; cells: CEM ; read by: syncytia ; strain: TIBO R82913-resistant (RT K103N) ; value: 55.6
Cc1cc(C#N)cc(C)c1Oc1nc(Nc2ccc(C#N)cc2)ncc1SCC(N)=O ; mutations: L100I ; cells: MT-4 ; read by: MTT ; value: 4.8
CC(C)[C@H](NC(=O)OCc1ccccn1)C(=O)N[C@@H](Cc1ccccc1)[C@@H](O)C[C@H](Cc1ccccc1)NC(=O)OCc1cccnc1 ; mutations: PR-L10R L63P V82T I84V ; cells: MT-4 ; read by: p24 ; strain: NL4-3 ; value: 1.875
Cc1cc(C#N)cc(C)c1Oc1nc(Nc2ccc(C#N)cc2)ncc1SCC(=O)NCCN1CCOCC1 ; mutations: L100I ; cells: MT-4 ; read by: MTT ; value: 3.7
Cc1sccc1C(=O)Nc1ccc(Cl)c(OCC=C(Cl)Cl)c1 ; mutations: RT-V106A ; cells: CEM ; read by: syncytia ; strain: Nevirapine-resistant isolate (RT V106A) ; value: 13.3

3 of the rows above, restated:

smiles | mutations | cells | read by | strain | value
COc1c(Cl)ccc2c1[C@@](C#Cc1ccccc1)(C(F)(F)F)NC(=O)N2 | RT-L100I K103N | MT-4 | p24 | - | 698.1
C#CCNC(=O)CSc1cnc(Nc2ccc(C#N)cc2)nc1Oc1c(C)cc(C#N)cc1C | K103N | MT-4 | MTT | - | 0.7
Cc1cc(C)c(Oc2nc(Nc3ccc(C#N)cc3)c(=O)n(C)c2C)c(C)c1 | RT-L100I | MT-4 | cytopathic effect / MTT | - | 10